Human monoclonal antibodies against the spike receptor-binding domain (heavy:light variable regions). IC50 against pseudoviruses bearing the spike of naturally observed variants; lower = stronger; >10 µg/ml means not reached at the top dose. No active / inactive call. The stated detection limit is 0.0005 µg/ml; values near or below 0.001 µg/ml lie at the floor of the assay.

First the molecules themselves.
B1: BD56-1735 (protein)
chain 1: QVQLVESGGGVVQPGRSLRLSCGASGFSFSDYAMHWVRQAPGKGLEWVAVTSYDGSIKQYGDSVRGRFTVSRDNSKNTVFLQMNSLRDEDTAVYYCAREGHGSGSYDQRVAPGDYFDSWGQGTLVTVSS
chain 2: SYVLTQPPSVSVAPGRTARITCGGNDIGSKSVHWYQQKPGQAPVLVIYYDHDRPSGIPERFSGSNSGNTATLTISRVEAGDEADYYCQVWDGSSVFYVFGSGTKVTVL
B2: BD56-1744 (protein)
chain 1: QVQLVQSGAEVKKPGSSVKVSCKASGGTFSSNTISWVRQAPGQGLEWMGRIIPILGIPDYAQKFQGRVTINADKSTSTAYMELSSLRSEDTAVYYCAKDTGYSGYLSAYYFEYWGQGTLVTVSS
chain 2: QSVLTQPPSVSGAPGQRVTISCTGSNSNIGAGYDVHWYQQLPGTAPNLLIYGNGNRPSGVPDRFSGSKSGTSASLAITGLQAEDEADYYCQSYDSSLSGSVFGGGTKLTVL
B3: COV2-2848 (protein)
chain 1: QVQLVESGGGVVQPGRSLRLSCAASGFTFSRYAMYWVRQAPGKGLEWVALISYDGRNEYYADSVKGRFTISRDNSKNTLYLQMNSLRAGDSAVYYCARDLAYHPYRDYGDDDYYYYYGMDVWGQGTTVTVSS
chain 2: SYELTQPPSVSVSPGQTARITCFGDALPKQYAYWYQQKPGQGPVLVIYKDSERPSGIPERFSGSTSGTTVTLTISGVQAEDEADYYCQSADSSGTYRVFGGGTKLTVL
B4: BD56-1734 (protein)
chain 1: EVQLVESGGGLVQPGGSLRLSCAASGFTFSSYDMHWVRQATGKGLEWVSTIGTSGDTYYPGSVKGRFTISRENAKNSLSLQMNSLRAGDTAVYYCARIKYDSRGFHWYLDLWGRGTLVTVSS
chain 2: DIQMTQSPSSLSASVGDRVTITCRASQSISGYLNWYQQKPGKAPKLLIYAASSLQSGVPSRFSGSGSGTDFTLTITNLQPEDFATYYCQQSYTNPLYTFGQGTKLEIK
B5: BD56-1727 (protein)
chain 1: QVTLRESGPALVRPTQTLTLTCTFSGFSLNTNGMSVSWIRQPPGKALEWLARIDWDGDKYYITSLKTRLTISKDTSKNQVVLTMTNMDPVDTATYYCARIREVRGGDYGMDVWGQGTTVAVSS
chain 2: QSVLTQPPSASGTPGQRVTISCSGSSPNIGRNTVNWYHHLPGTAPKLLIYSDNQRPSGVPVRFSGSKSGTSASLAISGLQSDDEAEYYCGTWDDSLNGWVFGGGTKLTVL
B6: BD56-1751 (protein)
chain 1: QVQLVESGGGVVQPGRSLRLSCAASGFIFSSYAMHWVRQAPGKGLEWVAVISYDGSNKHYADVVKGRFTISRDKNKNTLYLEMNSLRAEDTAVYYCARVSSNYYDSSGYSPYDYYGMDVWGQGTTVTVSS
chain 2: EIVLTQSPGTLSLSPGERATLSCRASQSFSSDYLAWYQQKPGQAPRLLIYGASSRATGIPDRFSGSGSGTDFTLTISRLEPEDFAVYYCQQYGSPWAFGQGTKVEIK
B7: BD56-1749 (protein)
chain 1: QVHLVQSGAEVKKPGSSVKVSCKASGDTFSTYTLSWVRQAPGQGLEWMGRIIPSLGIANYAQIFKGRVTITADTSTTTAYMELSSLRSEDTAVYYCARDSPLHLLSFYYYAMDVWGQGTTVTVSS
chain 2: QSVLTQPSSVSGTPGQRVTISCSGSSSNIGRNTVNWYQQLPGTAPKLLISNNSQRPSGVPDRFSGSKSGTSASLAISGLLSEDEAAYYCSAWDDSLDGVVFGGGTKLTLL
B8: BD56-1742 (protein)
chain 1: QVQLVQSGAEVKKPGASVKISCKASGYTFTTNFLHWVRQAPGQGLEWMGIINPSGFSSTYAQKFQGRVTMTGDTSTRTVYMELSSLISEDTAIYYCARGHTVAVAGLLDYWGQGTLVTVSS
chain 2: QTVVTQEPSLTVSPGGTVTLTCASSTGAVTSTYFPNWFQQKPGQAPRALIYSTTNKPSWTPARVSGSLLGGKAALTLSGVQAEDEADYYCLLYDGDTWVFGGGTKLTVL
B9: BD56-1747 (protein)
chain 1: EVKLVESGGGLVQPGRSLRLSCAVFGFTFDDYAMHWVRQAPGKGLEWVSGINWNGGDTGYVDSVKGRFTISRDNSKKSLYLQMNSLRAEDTALYYCAKDSRGGYDFWNGPLDVWGQGTTVTVSS
chain 2: EIVLTQSPGTLSLSPGERATLSCRASQIFDGGSLAWYQQKPGQAPRLLIYGTSSRATGIPDRFSGSGSGTDFTLTISRVEPEDFAVYYCQQYGSSPLTFGPGTKVDIK
B10: COV2-2734 (protein)
chain 1: QVQLQESGPGLVKPSETLSLTCTVSGGSVSSGSYYWSWIRQPPGKGLECIGYIYYSGSSNYNPSLKSRVTISVDTSKNQFSLKMSSVTAADTAVYYCAGSPVPPTIVGASYWGQGTLVTVSS
chain 2: NFMLTQPHSVSESPGKTVTFSCTGSSGSIASNYVQWYQQRPGSAPTTVIYEDNQRPSGVPDRFSGSIDSSSNSASLTISGLKTEDEADYYCQSYDGINRWLVFGGGTKLTVL
B11: BD56-1748 (protein)
chain 1: QVQLVESGGGVVQPGRSLRLSCAASGFTFSNYDMHWVRQAPGKGLEWVAVISSDGSGKFYADSVKGRFTISRDNSKTTVFLQMSSLRSDDTAVYYCAKDVGSAAAVDYFYHWGQGTLVTVSS
chain 2: DIQMTQSPSSLSASVGDRVTITCRASQNIFTYLSWYQQKPGKAPQLLIYAASSLRSGVPSKFSGSGSGTDFTLTISSLQPEDSATYYCQQSYNTPPWTFGQGTKVEIK
B12: BD56-1746 (protein)
chain 1: EVQLVESGGGLEQPGGSLRLSCAASGFTFSNHDMHWVRLSTVKGLEWVSAIGTASDTYYADSVKGRFTISRENAKNSLYLQMNSLRAGDTAVYYCARGADILTGYNNWYFDLWGRGTLVTVSS
chain 2: DIQMTQSPSSLSASVGDRVTITCRAGQRIGTYLHWYQQKPGKAPKLLIYAATSLQSGVPSRFSGRGSGTDFTLTISSLQPEDFATYYCQQSYSTPPATFGPGTKVDIK

The target of one test is SARS-CoV-2 Omicron BA.1 spike pseudovirus. In words: pseudovirus neutralization IC50; higher = weaker neutralization. The protocol:
(§1)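 Single-round VSV luciferase pseudovirus mixed with antibody dilutions for 1 h and put on Huh-7 cells for about a day; IC50 from the dose curve.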
As to B1, the “pseudovirus neutralization IC50” value is above 10 µg/mL.

Regarding B2, the “pseudovirus neutralization IC50” value came out at 0.0936 µg/mL.

In the case of B3, the “pseudovirus neutralization IC50” value was above 10 µg/mL.

Turning to B4, the “pseudovirus neutralization IC50” value is above 10 µg/mL.

Consider B5, for which the “pseudovirus neutralization IC50” value is above 10 µg/mL.

As to B6, the “pseudovirus neutralization IC50” value amounted to 0.194 µg/mL.

For the molecule B7, the “pseudovirus neutralization IC50” value amounted to 0.00187 µg/mL.

On to B8, for which the “pseudovirus neutralization IC50” value was found to be 0.0391 µg/mL.

B9: the “pseudovirus neutralization IC50” value turned out to be 0.322 µg/mL.

On to B10, for which the “pseudovirus neutralization IC50” value was above 10 µg/mL.

For the molecule B11, the “pseudovirus neutralization IC50” value was above 10 µg/mL.

B12: the “pseudovirus neutralization IC50” value was above 10 µg/mL.

For another test, the target named is SARS-CoV-2 Omicron BA.2 spike pseudovirus. The test is described as above. How it is done:
as §1
Take B1: the “pseudovirus neutralization IC50” value is above 10 µg/mL.

With B2, the “pseudovirus neutralization IC50” value was 0.0515 µg/mL.

On to B3, for which the “pseudovirus neutralization IC50” value is above 10 µg/mL.

On to B4, for which the “pseudovirus neutralization IC50” value was above 10 µg/mL.

On to B5, for which the “pseudovirus neutralization IC50” value was 0.00138 µg/mL.

Regarding B6, the “pseudovirus neutralization IC50” value came out at 0.188 µg/mL.

As for B7, the “pseudovirus neutralization IC50” value was 0.00163 µg/mL.

B8: the “pseudovirus neutralization IC50” value came out at 0.0107 µg/mL.

With B9, the “pseudovirus neutralization IC50” value is 0.177 µg/mL.

Regarding B10, the “pseudovirus neutralization IC50” value is above 10 µg/mL.

With B11, the “pseudovirus neutralization IC50” value was above 10 µg/mL.

Regarding B12, the “pseudovirus neutralization IC50” value was above 10 µg/mL.

Another test has as its target SARS-CoV-2 Omicron BA.2.75 spike pseudovirus. Described as above. The protocol: as §1
On to B1, for which the “pseudovirus neutralization IC50” value is above 10 µg/mL.

On to B2, for which the “pseudovirus neutralization IC50” value is 0.185 µg/mL.

Consider B3, for which the “pseudovirus neutralization IC50” value was above 10 µg/mL.

Take B4: the “pseudovirus neutralization IC50” value is above 10 µg/mL.

Regarding B5, the “pseudovirus neutralization IC50” value was above 10 µg/mL.

On to B6, for which the “pseudovirus neutralization IC50” value was 0.3 µg/mL.

B7: the “pseudovirus neutralization IC50” value came to 0.00265 µg/mL.

On to B8, for which the “pseudovirus neutralization IC50” value came to 0.0777 µg/mL.

Turning to B9, the “pseudovirus neutralization IC50” value was found to be 0.248 µg/mL.

On to B10, for which the “pseudovirus neutralization IC50” value was above 10 µg/mL.

Turning to B11, the “pseudovirus neutralization IC50” value was above 10 µg/mL.

For the molecule B12, the “pseudovirus neutralization IC50” value is above 10 µg/mL.

A further test addresses SARS-CoV-2 Omicron BA.5 spike pseudovirus. The test is described as above. The protocol:
as §1
B1: the “pseudovirus neutralization IC50” value was above 10 µg/mL.

For the molecule B2, the “pseudovirus neutralization IC50” value was 2.5 µg/mL.

With B3, the “pseudovirus neutralization IC50” value was above 10 µg/mL.

In the case of B4, the “pseudovirus neutralization IC50” value is above 10 µg/mL.

For the molecule B5, the “pseudovirus neutralization IC50” value came to 0.00279 µg/mL.

Turning to B6, the “pseudovirus neutralization IC50” value is above 10 µg/mL.

B7: the “pseudovirus neutralization IC50” value is above 10 µg/mL.

Take B8: the “pseudovirus neutralization IC50” value is above 10 µg/mL.

Consider B9, for which the “pseudovirus neutralization IC50” value is 1.06 µg/mL.

Turning to B10, the “pseudovirus neutralization IC50” value is above 10 µg/mL.

Regarding B11, the “pseudovirus neutralization IC50” value is above 10 µg/mL.

Regarding B12, the “pseudovirus neutralization IC50” value was above 10 µg/mL.

A further test addresses SARS-CoV-2 Omicron BQ.1.1 spike pseudovirus. Described as above. How it is done:
as §1
Regarding B1, the “pseudovirus neutralization IC50” value is above 10 µg/mL.

Consider B2, for which the “pseudovirus neutralization IC50” value is above 10 µg/mL.

For B3, the “pseudovirus neutralization IC50” value is above 10 µg/mL.

With B4, the “pseudovirus neutralization IC50” value is above 10 µg/mL.

For B5, the “pseudovirus neutralization IC50” value was above 10 µg/mL.

Turning to B6, the “pseudovirus neutralization IC50” value was above 10 µg/mL.

Turning to B7, the “pseudovirus neutralization IC50” value was above 10 µg/mL.

Take B8: the “pseudovirus neutralization IC50” value was above 10 µg/mL.

Consider B9, for which the “pseudovirus neutralization IC50” value was found to be 2.31 µg/mL.

Turning to B10, the “pseudovirus neutralization IC50” value was above 10 µg/mL.

On to B11, for which the “pseudovirus neutralization IC50” value was above 10 µg/mL.

B12: the “pseudovirus neutralization IC50” value was above 10 µg/mL.

The next test addresses SARS-CoV-2 Omicron XBB spike pseudovirus. The test is described as above. How it is done:
as §1
Turning to B1, the “pseudovirus neutralization IC50” value is above 10 µg/mL.

As for B2, the “pseudovirus neutralization IC50” value was above 10 µg/mL.

As for B3, the “pseudovirus neutralization IC50” value was above 10 µg/mL.

Consider B4, for which the “pseudovirus neutralization IC50” value is above 10 µg/mL.

For B5, the “pseudovirus neutralization IC50” value is above 10 µg/mL.

On to B6, for which the “pseudovirus neutralization IC50” value was above 10 µg/mL.

Consider B7, for which the “pseudovirus neutralization IC50” value is above 10 µg/mL.

As for B8, the “pseudovirus neutralization IC50” value was above 10 µg/mL.

As to B9, the “pseudovirus neutralization IC50” value is 3.71 µg/mL.

In the case of B10, the “pseudovirus neutralization IC50” value was above 10 µg/mL.

B11: the “pseudovirus neutralization IC50” value is above 10 µg/mL.

B12: the “pseudovirus neutralization IC50” value was above 10 µg/mL.

The target in the next test is SARS-CoV-2 early D614G spike pseudovirus. The description is as above. How it is done:
as §1
As to B1, the “pseudovirus neutralization IC50” value is above 10 µg/mL.

As for B2, the “pseudovirus neutralization IC50” value was determined as 0.19 µg/mL.

On to B3, for which the “pseudovirus neutralization IC50” value was above 10 µg/mL.

Turning to B4, the “pseudovirus neutralization IC50” value is above 10 µg/mL.

For B5, the “pseudovirus neutralization IC50” value was determined as 0.0189 µg/mL.

On to B6, for which the “pseudovirus neutralization IC50” value stood at 0.346 µg/mL.

As to B7, the “pseudovirus neutralization IC50” value was found to be 0.00533 µg/mL.

Regarding B8, the “pseudovirus neutralization IC50” value came to 0.00219 µg/mL.

Turning to B9, the “pseudovirus neutralization IC50” value came out at 0.185 µg/mL.

B10: the “pseudovirus neutralization IC50” value was above 10 µg/mL.

As for B11, the “pseudovirus neutralization IC50” value stood at 1.19 µg/mL.

On to B12, for which the “pseudovirus neutralization IC50” value was above 10 µg/mL.

(Values after the supplement of paper PMC9931576.)
